1 sequence from article PMC12131781 can be followed below.

This data set has as its target T1, His-RstA (Klebsiella pneumoniae ATCC43816) (UniProt A6T8N1).
T1 sequence (looked up): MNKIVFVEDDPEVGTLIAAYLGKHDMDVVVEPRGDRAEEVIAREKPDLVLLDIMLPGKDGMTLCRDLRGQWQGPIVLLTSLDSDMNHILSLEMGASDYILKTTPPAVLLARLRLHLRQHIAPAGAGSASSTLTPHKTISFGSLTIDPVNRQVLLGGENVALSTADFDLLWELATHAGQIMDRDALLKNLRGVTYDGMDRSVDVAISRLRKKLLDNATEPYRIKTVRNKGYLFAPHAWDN
The data set can be described thus: EMSA. The settings on record: dose-dependent; 100 ng DNA fragment with purified RstA in binding buffer (composition not given), 37 C, 30 min; PAGE, GelRed stain; recombinant protein; residues 1-239; protein details: His (pET28a); label: none (GelRed stain); probe letters rebuilt from the primers and the genome. (In general: Mobility shift assays separate free from complexed probe on a gel.)

Protein sequences can lack the tags named with them.

Consider “GCGTGGCAAAAAGTGCGATTTAGATCACATTTTTATGGCGGTTTGATGGCGTAAACATGATCGTTTATCTATTTTTTAATTTAAAAACAATGGATTAATGATTTACTTCTGAAAGGGGGATCACATGGGCTGCCCTTGTTCAGGGAGAGGAATGCGCCTCATTCATGCTTTCATCATTCGCTGTGTGAATGGTTTGGTGCTGTTTTCACCACCGCAAAGGCAGATTCAGACTTATCGCGATGGCCTTCCGAGGGCTTTTTCTGCATGCTGTTGCGGTCACTTTCTCCCGCTCTGGCGTTAGGCTTGCTGCGCTGTAAACAACCACCCTCGCGTTTTCATCTATCAATGACTGTTTATTAATAGTCGATGGTTATCTGTTATATAACTTAATGAAACGTGAACAAATGTATATTTGTCGGCGAATAAATAGCATTCTTTGACGCCGATAGCACCAGCGAACTTATATTTTTAGGTTCGTTACCTGACGCCTTAAATATTGCGGCTCCCGGTCAGTCGAAGATTCTATTAGCAGTGGCATAAATCAGCATCGCCTGATGTTTCTGGTTCTATGCGAATTCACAGTGTGCTCATTGATTCGTAATTCACTCTGACAAGGAA (double strand) [mrkA promoter-proximal region]”, for which the binding result is “binds”.
